# Earlier results as cited in patent US7048924B2, “Combination antiviral and interleukin-2 therapy for HIV infection” (Chiron Corporation, priority 2000, dated 2006).
# Test system: HIV
# Conditions: low-dose daily subcutaneous IL-2, HAART discontinued
substance,measurement,setting,value
"IL-2: lymphokine interleukin-2, given as low-dose daily subcutaneous injection in the cited trial",Course of plasma virus levels after the peak,9 subjects with HIV infection,subsequently declined in concert with a rise in CD8+ T cells
same,Onset of transient surge in viremia after discontinuation of HAART (mean),9 subjects with HIV infection,about 19 days
same,Time from onset of the surge in viremia to its peak,9 subjects with HIV infection,roughly two
same,Mean virus concentration relative to the peak concentration,by 6 weeks after the onset of viremia,less than 10%
